Molecular target: T1, CaVrg4 Lys356Arg mutant (Candida albicans, UniProt Q5A477, K356R)
T1 sequence (Q5A477 34-371 K356R limits assumed): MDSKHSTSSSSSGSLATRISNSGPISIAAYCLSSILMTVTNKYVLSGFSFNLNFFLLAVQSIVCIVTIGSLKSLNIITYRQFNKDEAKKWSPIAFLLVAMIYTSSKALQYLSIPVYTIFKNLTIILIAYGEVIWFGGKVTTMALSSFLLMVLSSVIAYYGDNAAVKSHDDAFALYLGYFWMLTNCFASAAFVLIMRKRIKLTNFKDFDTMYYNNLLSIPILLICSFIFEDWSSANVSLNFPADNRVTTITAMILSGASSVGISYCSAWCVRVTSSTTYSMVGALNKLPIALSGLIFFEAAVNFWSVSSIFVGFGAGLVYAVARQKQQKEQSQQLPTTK

## C[C@@H]1O[C@H](OP(=O)(O)OP(=O)(O)OC[C@H]2O[C@@H](n3cnc4c(=O)[nH]c(N)nc43)[C@H](O)[C@@H]2O)[C@@H](O)[C@H](O)[C@@H]1O [GDP-fucose]
  GDP-fucose recognition, in words: did not improve

— PMC13342644, “Structural basis for transport and inhibition of nucleotide sugar transport in pathogenic fungi” (Nature Communications, 2026)
